Several values for one entry are separate records, joined by “and”; a condition that tells them apart may be missing. Equal values may be shown once.
Legend:
[1] = biological target: wild-type gp120YU2 with V5 and hexahis tags (HIV-1 strain YU2); experiment: SPR
[2] = ref [4]; cited from earlier work

Row | Substance | Kd [1] | upper respiratory tract infections [2]
1 | Hexahis-tagged 4-domain soluble CD4 (receptor) | 79 nM and 22 nM | –
2 | maraviroc | – | increased incidence of upper respiratory tract infections

From paper PMC3731144 (Proteins, 2012)
